A mixed list of measured activities; the numbers were collected in NIAID ChemDB.

Common to all: whole-cell or culture tests; organism: Mycobacterium avium complex; endpoint: MIC

Conditions beyond the fields shown may differ between rows.

{"compound": "CCCCCCn1c(C)ccc1C", "strain or isolate": "103317", "value": ">16 µg/mL"}
{"compound": "CC[C@@H](CO)NCCN[C@@H](CC)CO", "strain or isolate": "168-4", "value": "7.5 µg/mL"}
{"compound": "NCC[C@H](O)C(=O)N[C@@H]1C[C@H](N)[C@@H](O[C@H]2O[C@H](CN)[C@@H](O)[C@H](O)[C@H]2O)[C@H](O)[C@H]1O[C@H]1O[C@H](CO)[C@@H](O)[C@H](N)[C@H]1O", "strain or isolate": "Isolate 53", "value": "3.13 µg/mL"}
{"compound": "CCCCCCn1c(C)c(CN2CCOCC2)c(CN2CCOCC2)c1-c1ccc(Cl)cc1", "strain or isolate": "103317", "value": ">64 µg/mL"}
{"compound": "CO[C@H]1/C=C/O[C@@]2(C)Oc3c(C)c(O)c4c(O)c(c(/C=N/N5CCN(C)CC5)c(O)c4c3C2=O)NC(=O)/C(C)=C\\C=C\\[C@H](C)[C@H](O)[C@@H](C)[C@@H](O)[C@@H](C)[C@H](OC(C)=O)[C@@H]1C", "value": ">2.6 µg/mL"}
{"compound": "Cc1ccc(C)[nH]1", "strain or isolate": "103317", "value": ">16 µg/mL"}
{"compound": "NC[C@H]1O[C@H](O[C@H]2[C@H](O)[C@@H](O[C@H]3O[C@H](CO)[C@@H](O)[C@H](N)[C@H]3O)[C@H](N)C[C@@H]2N)[C@H](O)[C@@H](O)[C@@H]1O", "strain or isolate": "N-238 (HIV-)", "value": "8 µg/mL"}
{"compound": "Cc1c(CN2CCOCC2)cc(-c2ccc(Cl)cc2)n1Cc1ccccc1", "strain or isolate": "103317", "value": ">64 µg/mL"}
{"compound": "NCC[C@H](O)C(=O)N[C@@H]1C[C@H](N)[C@@H](O[C@H]2O[C@H](CN)[C@@H](O)[C@H](O)[C@H]2O)[C@H](O)[C@H]1O[C@H]1O[C@H](CO)[C@@H](O)[C@H](N)[C@H]1O", "strain or isolate": "3215", "value": "16 µg/mL"}
{"compound": "NC[C@H]1O[C@H](O[C@H]2[C@H](O)[C@@H](O[C@H]3O[C@H](CO)[C@@H](O)[C@H](N)[C@H]3O)[C@H](N)C[C@@H]2N)[C@H](O)[C@@H](O)[C@@H]1O", "strain or isolate": "Isolate C-20", "value": "≥400 µg/mL"}
{"compound": "NNC(=O)c1ccncc1", "value": ">1 µg/mL"}
{"compound": "Cc1c(CN2CCOCC2)c(CN2CCOCC2)c(-c2ccc(Cl)cc2)n1C1CCCCC1", "strain or isolate": "103317", "value": "8 µg/mL"}
{"compound": "CO[C@H]1/C=C/O[C@@]2(C)Oc3c(C)c(O)c4c(O)c(c(/C=N/N5CCN(C6CCCC6)CC5)c(O)c4c3C2=O)NC(=O)/C(C)=C\\C=C\\[C@H](C)[C@H](O)[C@@H](C)[C@@H](O)[C@@H](C)[C@H](OC(C)=O)[C@@H]1C", "strain or isolate": "Serotype 9", "value": ">40 µg/mL"}
{"compound": "NC[C@H]1O[C@H](O[C@H]2[C@H](O)[C@@H](O[C@H]3O[C@H](CO)[C@@H](O)[C@H](N)[C@H]3O)[C@H](N)C[C@@H]2N)[C@H](O)[C@@H](O)[C@@H]1O", "strain or isolate": "TMC 1473", "value": "0.78 µg/mL"}
{"compound": "Cc1c(CN2CCN(C)CC2)cc(-c2ccc(Cl)cc2)n1Cc1ccccc1", "strain or isolate": "103317", "value": "8 µg/mL"}
{"compound": "NC[C@H]1O[C@H](O[C@H]2[C@H](O)[C@@H](O[C@H]3O[C@H](CO)[C@@H](O)[C@H](N)[C@H]3O)[C@H](N)C[C@@H]2N)[C@H](N)[C@@H](O)[C@@H]1O", "strain or isolate": "TMC 1467", "value": "0.05 µg/mL"}
{"compound": "CO[C@H]1/C=C/O[C@@]2(C)Oc3c(C)c(O)c4c(O)c(c(/C=N/N5CCN(C)CC5)c(O)c4c3C2=O)NC(=O)/C(C)=C\\C=C\\[C@H](C)[C@H](O)[C@@H](C)[C@@H](O)[C@@H](C)[C@H](OC(C)=O)[C@@H]1C", "strain or isolate": "3220", "value": "8 µg/mL"}
{"compound": "NC[C@H]1O[C@H](O[C@H]2[C@H](O)[C@@H](O[C@H]3O[C@H](CO)[C@@H](O)[C@H](N)[C@H]3O)[C@H](N)C[C@@H]2N)[C@H](O)[C@@H](O)[C@@H]1O", "value": "<3 µg/mL"}
{"compound": "Cc1c(CN2CCN(C)CC2)c(CN2CCN(C)CC2)c(-c2ccc(Cl)cc2)n1C1CCCCC1", "strain or isolate": "103317", "value": ">64 µg/mL"}
{"compound": "NC[C@@H]1O[C@H](O[C@H]2[C@@H](O)[C@H](O[C@@H]3[C@@H](O)[C@H](N)C[C@H](N)[C@H]3O[C@H]3O[C@H](CO)[C@@H](O)[C@H](O)[C@H]3N)O[C@@H]2CO)[C@H](N)[C@@H](O)[C@@H]1O", "strain or isolate": "Isolate 135", "value": "25 µg/mL"}
{"compound": "Cc1c(CN2CCN(C)CC2)cc(-c2ccc(Cl)cc2)n1C1CCCCC1", "strain or isolate": "103317", "value": ">64 µg/mL"}
{"compound": "CC[C@@H](CO)NCCN[C@@H](CC)CO", "strain or isolate": "9141", "value": "3.8 µg/mL"}
{"compound": "NNC(=O)c1ccncc1", "strain or isolate": "13008 (serotype 20)", "value": "1.6 µg/mL"}
{"compound": "CO/N=C(\\C(=O)N[C@@H]1C(=O)N2C(C(=O)O)=CCS[C@H]12)c1csc(N)n1", "strain or isolate": "35 isolates", "value": "6.25 µg/mL"}
{"compound": "Cc1c(CN2CCN(C)CC2)c(CN2CCN(C)CC2)c(-c2ccc(Cl)cc2)n1Cc1ccccc1", "strain or isolate": "103317", "value": ">64 µg/mL"}
{"compound": "NC[C@@H]1O[C@H](O[C@H]2[C@@H](O)[C@H](O[C@@H]3[C@@H](O)[C@H](N)C[C@H](N)[C@H]3O[C@H]3O[C@H](CO)[C@@H](O)C[C@H]3N)O[C@@H]2CO)[C@H](N)[C@@H](O)[C@@H]1O[C@H]1O[C@H](CO)[C@@H](O)[C@H](O)[C@@H]1O", "strain or isolate": "TMC 1473", "value": "3.13 µg/mL"}
{"compound": "CN1CCN(c2cc3c(cc2F)c(=O)c(C(=O)O)cn3-c2ccc(F)cc2)CC1", "strain or isolate": "3216", "value": "32 µg/mL"}
{"compound": "CN[C@@H]1[C@@H](O)[C@@H](O[C@@H]2[C@@H](O)[C@H](O[C@H]3O[C@H](CN)CC[C@H]3N)[C@@H](N)C[C@H]2N)OC[C@]1(C)O", "strain or isolate": "TMC 1467", "value": "0.01 µg/mL"}
{"compound": "NCCC(O)C(N)CC(=O)NC1CNC(=O)C(C2CCN=C(N)N2)NC(=O)/C(=C/NC(N)=O)NC(=O)C(CO)NC(=O)C(CO)NC1=O", "strain or isolate": "13016 (serotype 4)", "value": "6.25 µg/mL"}

A second listing of 2 rows from above:

compound | strain or isolate | value
Cc1c(CN2CCN(C)CC2)cc(-c2ccc(Cl)cc2)n1Cc1ccccc1 | 103317 | 8 µg/mL
NCC[C@H](O)C(=O)N[C@@H]1C[C@H](N)[C@@H](O[C@H]2O[C@H](CN)[C@@H](O)[C@H](O)[C@H]2O)[C@H](O)[C@H]1O[C@H]1O[C@H](CO)[C@@H](O)[C@H](N)[C@H]1O | 3215 | 16 µg/mL